Reference: US20240245673A1, “Papain-like protease (PLpro) inhibitors” (Pfizer Inc., priority 2022, published 2024)

Biological target: SARS-CoV-2 Papain like protease (PLpro) (Severe acute respiratory syndrome coronavirus 2 (2019-nCoV) (SARS-CoV-2), UniProt P0DTD1)
Test: Papain Like Protease (PLpro) biochemical assay with profluorogenic substrate Z-RLRGG-AMC
Conditions: SARS-CoV-2 PLpro 6.25 nM, 25 μM Z-RLRGG-AMC substrate, 60 minute reaction

Row | SMILES | IC50
1 | COC(Cc1ccc(C(=O)NC2(c3cc(-c4cnn(C)c4)nc4ccccc34)CC2)c(C)c1)Cc1ccccn1 (stereo not drawn) | 4 nM
2 | Cc1cc(CC(O)Cc2ccccn2)ccc1C(=O)NC1(c2cc(-c3cnn(C)c3)nc3ccccc23)CC1 (stereo not drawn) | 1 nM
3 | Cc1ccc(N2CCN(CCO)CC2)cc1C(=O)NC1(c2cc(-c3cnn(C)c3)nc3ccccc23)CC1 | 3 nM
